A mixed list of measured activities; the numbers were collected in NIAID ChemDB.

All rows: whole-cell or culture tests; agent: Mycobacterium tuberculosis

ECn is the concentration giving n% inhibition of infection, replication or growth. Conditions beyond the fields shown may differ between rows. MIC bound comes from a single tested concentration. MIC50, MIC90 and the like: level of inhibition, or share of isolates inhibited. Inhibition is in % at the dose shown (toxicity tests: loss of growth or viability). Blank or dashed fields: not listed here.

compound	read by	cells	endpoint	strain or isolate	setting	tested at	result
CCCCCC/C=C/CCc1ccc(O)cc1	MTT		MIC	H37Rv			128 µM
O=C(O)COc1ccc(-c2ccccc2)c(CN2CCN(c3ccccn3)CC2)c1	broth dilution		MIC	H37Rv (ATCC 27294)			32 µg/mL
Fc1cc(F)cc(CNCCc2c[nH]c3ccccc23)c1			MIC	H37Ra			64 µg/mL
CCCC1CCc2c(sc(N)c2C#N)C1	resazurin		MIC	H37Rv			200 µM
COC1OCC(N)C(O)C1O	BACTEC		MIC bound	H37Rv			>12.5 µg/mL
CC(=O)/C(N=Nc1ccc(C(=O)N/N=C/c2ccccc2F)cc1)=C(\C)O			inhibition	H37Rv		12.5 µg/mL	20%
CC(C)(C)OC(=O)COc1ccc(-c2ccc(Cl)cc2)c(CN2CCN(c3ccccn3)CC2)c1	broth dilution		MIC	H37Rv (ATCC 27294)			16 µg/mL
CCOC(=O)c1ccc(-n2cnc(-c3ccc([N+](=O)[O-])cc3)c2)cc1	resazurin		MIC bound	H37Rv			>6.25 µg/mL
COc1ccccc1N1CCN(Cc2cc(OCC(=O)O)ccc2-c2ccc(Cl)cc2)CC1	broth dilution		MIC	H37Rv (ATCC 27294)			32 µg/mL
CO[C@H]1/C=C/O[C@@]2(C)Oc3c(C)c(O)c4c(c3C2=O)C(=O)C(N2CCC(=NNC(N)=O)CC2)=C(NC(=O)/C(C)=C\C=C\[C@H](C)[C@H](O)[C@@H](C)[C@@H](O)[C@@H](C)[C@H](OC(C)=O)[C@@H]1C)C4=O			MIC	H37Rv			0.005 µg/mL
CC(C)[C@H]1CC[C@H]2[C@@H]3C=C[C@]4(C)CC[C@@]3(CC[C@]12CO)CO4	visual reading / absorbance		MIC	H37Rv			20.5 µM
CC1=C2C(=CO[C@H](C)[C@H]2C)C(=O)C(C(=O)O)=C1O			inhibition	M.AV		400 µg/mL	91%
CC(NC(=O)c1ccccc1C(F)(F)F)c1nnc(SCCOc2ccc(F)cc2)n1Cc1ccc(F)cc1	broth dilution		MIC	H37Rv (ATCC 27294)	14 d		>64 µg/mL
C=C(C)[C@@H]1CC=C(CN2CCCN(CC3=CC[C@H](C(=C)C)CC3)CC2)CC1			MIC	H37Rv			12.5 µM
Nc1ccc(C(=O)N/N=C/c2ccc(F)cc2)cc1			inhibition	H37Rv		12.5 µg/mL	11%
CCCCCCn1c(C)cc(CN2CCN(C)CC2)c1C			MIC	H37Rv			<12.5 µg/mL
Nc1ccc(C(=O)N/N=C/c2ccc([N+](=O)[O-])cc2)cc1			inhibition	H37Rv		12.5 µg/mL	23%
Cn1c(-c2ccccc2)c(C(C[N+](=O)[O-])C[N+](=O)[O-])c2ccccc21			MIC	H37Ra			>128 µg/mL
Nc1c(Br)cc(O)c(CC(=O)O)c1Br			MIC	H37Rv			49 µM
O=[N+]([O-])CC(C[N+](=O)[O-])c1c[nH]c2ccccc12			MIC	H37Ra			64 µg/mL
Cc1nc([N+](=O)[O-])cn1-c1ccc(Cl)cc1		VERO	MIC	H37Rv			0.39 µg/mL
CC1(C)C=CC(NC(=O)c2cc3c(Cl)cncc3[nH]2)CC1	resazurin		MIC90	H37Rv			0.13 µg/mL
CCCCCCn1c(C)c(CN2CCOCC2)c(CN2CCOCC2)c1-c1ccc(Cl)cc1			MIC	H37Rv			<12.5 µg/mL
COc1c2occc2c(N)c2ccc(=O)oc12	BACTEC		MIC bound	H37Rv			>12.5 µg/mL
CC1(C)CC(=O)C2=C(C1)N(Nc1ccccc1)C(N)=C(C#N)C2c1cc2cc(Cl)ccc2nc1Cl	agar		MIC	H37Rv			5 µg/mL
N#Cc1ccc(Nc2nc(Oc3cccc4cccnc34)nc(N3CCN(c4cccc(Cl)c4Cl)CC3)n2)cc1C(F)(F)F	BACTEC		MIC	H37Rv			>6.25 µg/mL
O=C(N/N=C/c1ccc(/C=N/NC(=O)c2cccnc2)cc1)c1cccnc1	BACTEC		inhibition	H37Rv		12.5 µg/mL	-5%
c1cc2c(cc1CN1CCN(C3C4CC5CC(C4)CC3C5)CC1)OCO2			MIC	H37Rv			25 µM
COc1ccc2c(c1)n([O-])c1cc(C#N)ccc1[n+]2=O			MIC	PAS-R			12.5 µg/mL
CNCc1c[nH]c2ccccc12			MIC	H37Ra			64 µg/mL
O=C(Nc1ccc(N=Nc2ccc(S(=O)(=O)O)cc2)cc1)c1ccc(N=Nc2ccc3c(S(=O)(=O)O)cccc3c2O)cc1	BACTEC		MIC	H37Rv			≥12.5 µg/mL
Clc1cc(Cl)cc(CNCCc2c[nH]c3ccccc23)c1			MIC	H37Ra			32 µg/mL
O=[N+]([O-])c1ccc(-n2cc([N+](=O)[O-])cn2)cc1			MIC	H37Rv			>6.25 µg/mL
COC1=C(Br)[C@@H](O)[C@]2(C=C1Br)CC(C(=O)NCC(O)c1cc(Br)c(OCCCNC(=O)C3=NO[C@]4(C=C(Br)C(OC)=C(Br)[C@@H]4O)C3)c(Br)c1)=NO2			MIC	H37Rv			7.3 µM
CCOc1ccc(C(=O)O)cc1			MIC	H37Rv			500 µM
Cc1ccc(C)[nH]1			MIC	H37Rv			<12.5 µg/mL
CCC(C)C(NC=O)C(=O)N[C@@H]1C(=O)N[C@H](C(C)C)C(=O)N[C@@H](C(C)C)C(=O)N2CCC[C@@H]2C(=O)N[C@H](CC(C)C)C(=O)N2CCC[C@@H]2C(=O)OC1C	agar		MIC	MDR			16 µg/mL
CC(=O)/C(N=Nc1ccc(C(=O)N/N=C/C=C/c2ccc(N(C)C)cc2)cc1)=C(\C)O			EC50	H37Rv			<12.5 µg/mL
O=[N+]([O-])/C=C/c1cc2c(ccc3ccccc32)[nH]1		VERO	MIC	H37Rv			6.25 µg/mL
CC1CC(C)CN(c2nc(Nc3ccc(C#N)c(C(F)(F)F)c3)nc(Oc3cccc4cccnc34)n2)C1	BACTEC		MIC99	H37Rv			6.25 µg/mL
CN(C)CNC(=S)S			MIC	PAS-R			3.1 µg/mL
CC(C)N1CCN(c2nc(Nc3ccc(C#N)c(C(F)(F)F)c3)nc(Oc3cccc4cccnc34)n2)CC1	BACTEC		MIC	H37Rv			>6.25 µg/mL
CCCCCOc1ccc(C(=O)O)cc1			MIC	H37Rv			7 µM
Nc1ccc(C(=O)N/N=C/c2ccccc2F)cc1			EC50	H37Rv			>12.5 µg/mL
CN(Cc1ccc(Cl)cc1)Cc1c[nH]c2ccccc12			MIC	H37Ra			32 µg/mL
Cc1ccc(C)n1Cc1ccccc1			MIC	103471			8 µg/mL
Fc1cccc(Cl)c1CNCc1c[nH]c2ccccc12			MIC	H37Ra			64 µg/mL
CCCCCC[N+]12CC=C3COC(=O)C(C)(O)C(C)(O)C(C)C(=O)OC(CC1)C32.[Br-]	BACTEC		inhibition	H37Rv		12.5 µg/mL	8%
CCCCCCn1c(C)c(CN2CCN(C)CC2)c(CN2CCN(C)CC2)c1-c1ccc(Cl)cc1			MIC	H37Rv			<12.5 µg/mL
CO[C@H]1/C=C/O[C@@]2(C)Oc3c(C)c(O)c4c(c3C2=O)C(=O)C(N2CCC(=NN3CCN(C)CC3)CC2)=C(NC(=O)/C(C)=C\C=C\[C@H](C)[C@H](O)[C@@H](C)[C@@H](O)[C@@H](C)[C@H](OC(C)=O)[C@@H]1C)C4=O			MIC	H37Rv			0.0025 µg/mL
Cc1ccc(-c2ccc(Cl)cc2)[nH]1			MIC	H37Rv			<12.5 µg/mL
C=CCOc1ccc(C(=O)O)cc1			MIC	H37Rv			500 µM
Fc1ccc(F)c(CNCc2c[nH]c3ccccc23)c1			MIC	H37Ra			64 µg/mL
CC(C)[C@@H]1C2[C@H](O)[C@]3(O)[C@@H](C)CC[C@@H]4[C@@H](C)C[C@@H]1[C@@]43C(=O)C2(C)C			inhibition	H37Rv		12.5 µg/mL	17%
CC(=O)OC[C@]12CC[C@@]3(C)CC=C(C)C=C[C@H]3[C@@H]1CC[C@@H]2C(C)C	visual reading / absorbance		MBC	H37Rv			151.3 µM
CC(NC(=O)c1cnc2ccccc2n1)C(=O)NC(C(=O)O)C(C)C	BACTEC		inhibition	H37Rv		12.5 µg/mL	7%
N#Cc1ccc(Nc2nc(Oc3cccc4cccnc34)nc(N3CCOCC3)n2)cc1C(F)(F)F	BACTEC		MIC	H37Rv			>6.25 µg/mL
COc1ccc2nc(Cl)c(C3C(C#N)=C(N)N(Nc4ccc(Cl)cc4)C4=C3C(=O)CC(C)(C)C4)cc2c1	agar		MIC	H37Rv			21 µg/mL
CCOC(=O)COc1ccc(-c2ccc(C#N)cc2)c(CN2CCN(c3ccccn3)CC2)c1	broth dilution		MIC	H37Rv (ATCC 27294)			4 µg/mL
CC(C)[C@H]1CC[C@H]2[C@@H]3C=C[C@](C)(O)CC[C@]3(C)CC[C@]12C(=O)O	visual reading / absorbance		MBC	H37Rv			312 µM
CCCCCCn1c(C)cc(CN2CCOCC2)c1C			MIC	H37Rv			<12.5 µg/mL
CC(=O)/C(N=Nc1ccc(C(=O)N/N=C/c2ccc([N+](=O)[O-])o2)cc1)=C(\C)O			MIC	H37Rv			<12.5 µg/mL
Cc1cc(CN2CCN(C)CC2)c(C)n1Cc1ccccc1			MIC	103471			8 µg/mL
O=C1N=c2ccccc2=C1c1sc(=O)n(Cc2nc3ccccc3[nH]2)c1O	BACTEC		inhibition	H37Rv		6.25 µg/mL	70%
Cc1nc([N+](=O)[O-])cn1-c1ccc([N+](=O)[O-])cc1			inhibition	H37Rv		6.25 µg/mL	83%
Cc1ccc2nc(Cl)c(C3C(C#N)=C(N)N(Nc4ccc(Cl)cc4)C4=C3C(=O)CC(C)(C)C4)cc2c1	agar		MIC	H37Rv			15 µg/mL
C=CC(C)(O)CCC1C(=C)C(O)CC2C(C)(C)CCCC12C			inhibition	H37Rv		6.25 µg/mL	7%
Fc1cccc(CNCc2c[nH]c3ccccc23)c1F			MIC	H37Ra			64 µg/mL
CCC(CO)Nc1nc2cc(Cl)ccc2c2ccc(Cl)cc12	BACTEC		inhibition	H37Rv		12.5 µg/mL	84%
CN(C)c1ccc(/C=C/C/C=N/NC(=O)c2ccc(N)cc2)cc1			EC50	H37Rv			<12.5 µg/mL
O=C(Nc1ccccc1)OCCN=C1c2ccccc2C(Br)C(Br)c2ccccc21	BACTEC		inhibition	H37Rv		12.5 µg/mL	28%
CC(C)COc1ccc(C(=O)O)cc1			MIC	H37Rv			188 µM
CC1=C\[C@H](O)CC(=O)Cc2nc(co2)C(=O)N2CCC=C2C(=O)O[C@@H](C(C)C)[C@@H](C)/C=C/C(=O)NC\C=C\1	BACTEC		MIC	H37Rv			≥12.5 µg/mL
NNC(=O)c1ccncc1			MIC	H37Rv			<0.05 µg/mL
COC(=O)c1cc(NS(=O)(=O)N(C)C)cc(C(=O)OC)c1	BACTEC		inhibition	H37Rv		12.5 µg/mL	-7%
CO[C@H]1/C=C/O[C@@]2(C)Oc3c(C)c(O)c4c(c3C2=O)C(=O)C(N2CCC(=NNC(N)=S)CC2)=C(NC(=O)/C(C)=C\C=C\[C@H](C)[C@H](O)[C@@H](C)[C@@H](O)[C@@H](C)[C@H](OC(C)=O)[C@@H]1C)C4=O			MIC	H37Rv			0.0025 µg/mL
O=C1NC(=O)N(/N=C/c2ccc(-c3ccc(Cl)c(Cl)c3)o2)C1O	BACTEC		inhibition	H37Rv		12.5 µg/mL	54%
Nc1ccc(C(=O)N/N=C/c2ccccc2)cc1			inhibition	H37Rv		12.5 µg/mL	16%
COc1ccc(OC)c(/C=C2/N=C(c3ccccc3)OC2=O)c1	BACTEC		MIC bound	H37Rv			>12.5 µg/mL
O=C(O)COc1ccc(-c2ccncc2)c(CN2CCN(c3ccccn3)CC2)c1	broth dilution		MIC	H37Rv (ATCC 27294)			32 µg/mL
O=C(N/N=C/c1ccc(O)cc1O)c1ccncc1			MIC	INH-r			>8 µg/mL
CC1(C)CC(=O)C2=C(C1)N(Nc1ccccc1)C(N)=C(C#N)C2c1cc2ccccc2nc1Cl	agar		MIC	H37Rv			8 µg/mL
O=c1cc(-c2ccccc2)[nH]c2[nH]n(-c3ccccc3)c(=O)c12	BACTEC		MIC bound	H37Rv			>12.5 µg/mL
CC(=O)/C(N=Nc1ccc(C(=O)N/N=C/c2ccc(O)cc2)cc1)=C(\C)O			EC50	H37Rv			<12.5 µg/mL